In assay [1] the test system is ZIKV GFP RVPs. Description: ZIKV reporter virus particle (RVP) infection assay in Vero cells. The note with it: for IC50: Table 1, compounds 30 min before ZIKV RVPs, GFP+ cells 72 h postinfection; for anti-ZIKV activity in words: ZIKV RVPs.
In assay [2] the test system is ZIKV RVPs. Briefly: ZIKV RVP infection assay in HeLa cells. Type of assay: cell-based, Zika virus. The note with it: Table 2.

Broadly, the IC50 is the concentration at which inhibition is half-maximal. As to `[N-]=[N+]=NCc1cc(CN=[N+]=[N-])cc(-c2cc(CN=[N+]=[N-])cc(Cn3cc(COCCOCCOCCOCCOCCOCc4cn(Cc5cc(CN=[N+]=[N-])cc(-c6cc(CN=[N+]=[N-])cc(CN=[N+]=[N-])c6)c5)nn4)nn3)c2)c1`, in assay [1], the IC50 is over 100 µM.

Turning to `[N-]=[N+]=NCc1cc(CN=[N+]=[N-])cc(-c2cc(CN=[N+]=[N-])cc(Cn3cc(COCCOCCOCCOCc4cn(Cc5cc(CN=[N+]=[N-])cc(-c6cc(CN=[N+]=[N-])cc(CN=[N+]=[N-])c6)c5)nn4)nn3)c2)c1`, the half-maximal inhibitory concentration (IC50) in assay [1] is over 100 µM.

For `[N-]=[N+]=NCc1cc(CN=[N+]=[N-])cc(-c2cc(CN=[N+]=[N-])cc(Cn3cc(COCCOCc4cn(Cc5cc(CN=[N+]=[N-])cc(-c6cc(CN=[N+]=[N-])cc(CN=[N+]=[N-])c6)c5)nn4)nn3)c2)c1`, the IC50 in assay [1] is over 100 µM.

As to “1,1′,1′″-([1,1′-biphenyl]-3,3′,5,5′-tetrayl)tetrakis(N-((1-methyl-1H-imidazol-2-yl)methyl)methanamine)”, in assay [1], the IC50 is over 100 µM and the “anti-ZIKV activity in words” value is recorded as “does not show any anti-Zika activity”.

“(1E,1′E,1″E,1′″E)-N,N,N′,N″-([1,1′-biphenyl]-3,3′,5,5′-tetrayltetrakis(methylene))tetrakis(1-(1H-pyrrol-2-yl)methanimine)” registered an IC50 in assay [2] of 3.06 µM. Also, in assay [1], the IC50 stood at 1.36 µM and the “anti-ZIKV activity in words” value is on record as “less potent”.

Regarding “(1E,1′E,1″E,1′″E)-N,N,N′,N″-([1,1′-biphenyl]-3,3′,5,5′-tetrayltetrakis(methylene))tetrakis(1-(furan-2-yl)methanimine)”, in assay [1], the IC50 was over 100 µM and the “anti-ZIKV activity in words” value is given as “not effective”.

“(1E,1′E,1″E,1′″E)-N,N,N″,N″-([1,1′-biphenyl]-3,3′,5,5′-tetrayltetrakis(methylene))tetrakis(1-(thiophen-2-yl)methanimine)”: in assay [1], the IC50 is over 100 µM and the “anti-ZIKV activity in words” value is reported as “not effective”.

The values above are taken from patent publication US12023323B2, “Carbohydrate-binding small molecules with antiviral activity” (priority 2018, dated 2024).
